Measured values published in patent US11357857B2, “Excipient compounds for protein processing” (COMERA LIFE SCIENCES, INC., priority 2014, dated 2022).

Tested on: bovine gamma globulin (BGG)
Experiment: Viscosity of 280 mg/mL BGG formulations in 50 mM histidine HCl pH 6 with excipient, cone and plate viscometer (Examples 1, 2, 4-6)
Assay type: physicochemical

Question: Which results are given for `OCCN(CCO)CCO`?
Answer: Viscosity (excipient 38 mg/mL): 57 cP; Viscosity Reduction (excipient 38 mg/mL): 28%; Viscosity (excipient 97 mg/mL): 51 cP; Viscosity Reduction (excipient 97 mg/mL): 35%
